Measurements as given in publication PMC5282649, “Binding site of restriction-modification system controller protein in Mollicutes”.
The exact form of at least one protein or probe is not confirmed. Negatives hold for the conditions tested. Protein sequences can lack the tags named with them.

Target: T1, HsdC (controller protein of type I RM-system) (Mycoplasma gallisepticum S6) (UniProt A0A0F6CKR7)
T1 sequence (looked up, limits assumed): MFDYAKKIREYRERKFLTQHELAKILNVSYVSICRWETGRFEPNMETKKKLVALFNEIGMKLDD
Experiment: EMSA
Details: 20 mM Tris-HCl pH 7.5, 100 mM KCl, 6% glycerol, 15 min at 37 °C; 20 pmol protein with 10 pmol dsDNA; 6% acrylamide gel, TB buffer pH 8.3, 10 °C, EtBr stain; recombinant protein; protein details: C-terminal His-tag (pETm)

AATTCAAAAGTGTTAAAAAGTGTGAGAAAGTGGGAAAAAT (double strand) [PmraZ]
binding result: no binding
